We go through two molecules from publication PMC10059057, “Antileishmanial and Antiplasmodial Activities of Secondary Metabolites from the Root of Antrocaryon klaineanum Pierre (Anacardiaceae)” (Molecules, 2023).

Series [1] concerns P. falciparum chloroquine-sensitive (Pf3D7). Kind of series: Antiplasmodial SYBR green I based fluorescence assay, chloroquine-sensitive strain. The class given is cell-based, Plasmodium falciparum. The note with it: SI = CC50 (Raw cells)/IC50 (Pf3D7). The procedure:
The cryopreserved chloroquine-sensitive (Pf3D7-(MRA-102)), the multi-resistant (PfDd2) of Plasmodium falciparum, and the promastigote form of Leishmania donovani strains were obtained from BEI Resources (https://www.beiresources.org/ (accessed on 16 February 2019)) and are routinely cultured at the Antimicrobial and Biocontrol Agents Unit, University of Yaoundé I. […]
Drug sensitivity assay was carried out in 96-well microtitration plates using the SYBR green I based fluorescence assay (Smilkstein et al., 2004). […]
The 96 wells flat-bottom assay plates with sorbitol-synchronized ring stage parasites (haematocrit: 1%, parasitaemia: 2%, 90 μL) were incubated in the presence of 10 µL of pre-diluted extracts, fractions, isolated compounds, and reference drugs [Chloroquine and Artemisinin (Sigma–Aldrich, Munich, Germany)] at different triplicate concentrations (100 µg/mL–0.16 µg/mL for extract/fractions and 50 µg/mL–0.08 µg/mL for compounds). […] Fluorescence was measured using the microplate reader Infinite M200 (Tecan) at an excitation and emission wavelength of 485 and 538 nm, respectively. […]

Series [2] deals with L. donovani promastigotes 1S (MHOM/SD/62/1S). Kind of series: Antileishmanial resazurin fluorimetric assay on promastigotes. The class given is cell-based, Leishmania donovani. The note with it: SI = CC50 (Raw cells)/IC50 (L. donovani). On the procedure:
The cryopreserved chloroquine-sensitive (Pf3D7-(MRA-102)), the multi-resistant (PfDd2) of Plasmodium falciparum, and the promastigote form of Leishmania donovani strains were obtained from BEI Resources (https://www.beiresources.org/ (accessed on 16 February 2019)) and are routinely cultured at the Antimicrobial and Biocontrol Agents Unit, University of Yaoundé I.
Leishmania donovani promastiogtes were cultured in Medium 199 (Sigma, Darmstadt, Germany) supplemented with 10% Heat-Inactivated fetal Bovine Serum (HIFBS) (Sigma, Darmstadt, Germany) and 100 IU/mL penicillin/streptomycin. The culture was maintained in 75 cm^2 cell culture flask at 28 °C and sub-cultured every 72 h.
A stock solution was prepared at 100 mg/mL for each extract and fraction and at 50 mg/mL for isolated compound in 100% DMSO (Sigma–Aldrich, Munich, Germany). […]
The antileishmanial activity of crude extracts, derived fractions, and isolated compounds against cultured L. donovani promastigotes was evaluated using the resazurin fluorimetric assay as described by Siqueira-Neto et al. (2010). […] After an additional incubation for 44 h, plates were then read on a Magelan Infinite M200 fluorescence plate reader (Tecan, Männedorf, Switzerland) at excitation and emission wavelengths of 530 and 590 nm, respectively. […]
(The colour change of resazurin is a common sign of viable cells or microbes.)

As for `CCCCCCCC=CCCCCCCCCCCCCCC(O)C(O)C(COC1OC(CO)C(O)C(O)C1O)NC(=O)C(O)CCCCCCCCCCCCCC` [Antroklaicerebroside (1), (2S,3S,4R,2′R,18E)N-((-3,4-dihydroxy-β-D-gluco-pyranosyl)oxy)hexacos-18-en-2-yl)-2-hydroxyhexadecanamide], the SI_Pf3D7 entry in series [1] is recorded as “greater than 11”. Moreover, in series [2], the “L. donovani Promastigote SI” value is listed as over 80.78.
Turning to `COc1c(O)cc2c(=O)oc3c(OC)c(O)cc4c(=O)oc1c2c34` [3,3′-Dimethylellagic acid (4), 3,3′-dimethylellagic acid], in series [2], the “L. donovani Promastigote SI” value was over 61.96.
